Laboratory results as given in PMC5920107, “Self-homodimerization of an actinoporin by disulfide bridging reveals implications for their structure and pore formation” (2018).

Molecular target: P81662
Details: AUC

B1: sticholysin I Trp111 to Cys mutant (StI W111C) (protein)
chain: SELAGTIIDGASLTFQVLDKVLGELGKVSRKIAVGIDNESGGTWTALNAYFRSGTTDVILPEVVPNTKALLYSGRKSSGPVATGAVAAFAYYMSNGNTLGVMFSVPFDYNCYSNWWDVKIYPGKRRADQGMYEDMYYGNPYRGDNGWYQKNLGYGLRMKGIMTSAGEAKMQIKISR
Question: How did the peaks integration (%), monomer peak turn out when B1 was run?
Answer: The peaks integration (%), monomer peak was 8%.
